Results of unrelated studies side by side (data: NIAID ChemDB).

Common to all: whole-cell or culture tests; species: Plasmodium falciparum

Lines come from different laboratories, so protocols vary. An empty or dashed field is not shown. ECn is the concentration giving n% inhibition of infection, replication or growth. Percent inhibition refers to the dose given; in toxicity tests it is the harm to the cells.

SMILES	strain	cells	read by	conditions	endpoint	tested at	result
ClCCl	D10	Human dermal fibroblasts	MTT	-	EC50	-	47 µg/mL
CC(=O)O[C@H]1CC2C(C3CC[C@H](C(C)CCCNCCCCCCNc4ccnc5cc(Cl)ccc45)[C@]31C)[C@H](OC(C)=O)C[C@@H]1CC(=O)CC[C@]21C	D6	-	SYBR Green	-	EC90	-	0.00513 µM
NCCCC[C@H](N)C(=O)N(O)C1C[C@@H](C(N)=O)N(C(=O)c2ccc(-c3cccc([N+](=O)[O-])c3)o2)C1	3D7	Red blood cells	flow cytometry	48 h	EC50	-	172 µM
COc1ccc(Cn2c(N)c(-c3nc4ccccc4[nH]3)c3nc(C#N)c(C#N)nc32)cc1OC	NF54	Erythrocytes	hypoxanthine uptake / radiometric	-	EC50	-	1.98 µM
CCCCNc1nc(N)nc(Nc2nc(-c3ccc(Cl)c(Cl)c3)cs2)n1	3D7	-	-	-	inhibition	50 µg/mL	5.5%
N#Cc1nc2c(-c3nc4ccccc4[nH]3)c(N)n(CCc3ccc(Cl)cc3)c2nc1C#N	NF54	Erythrocytes	hypoxanthine uptake / radiometric	-	EC50	-	0.22 µM
CN[C@@H](CC1=c2c(O)c3c(c(O)c2N=C1)=NC=CS3(=O)=O)C(=O)O	3D7	-	-	-	MIC	-	0.309 µM
CCOC(=O)N/N=C(/OC)C(C)(O)c1ccc2ccccc2c1	3D7	-	hypoxanthine uptake / radiometric	-	inhibition	5 µM	76%
COc1ccc(CCn2c(N)c(-c3nc4ccccc4[nH]3)c3nc(C#N)c(C#N)nc32)cc1	NF54	Erythrocytes	hypoxanthine uptake / radiometric	-	EC50	-	0.16 µM
CCN(CC)c1nc(Cl)nc(Nc2nc(-c3ccc(Cl)c(Cl)c3)cs2)n1	3D7	-	-	-	inhibition	50 µg/mL	7%
CCN(CC)CCCC(C)Nc1ccnc2cc(Cl)ccc12	Dd2	-	-	48 h	inhibition	0.031 µg/mL	35%
CCN(CC)c1nc(NCCc2ccco2)nc(Nc2nc(-c3ccc(Cl)cc3)cs2)n1	3D7	-	-	-	inhibition	50 µg/mL	9.5%
CCC[C@H]1O[C@@H]2CC(=O)O[C@@H]2C2=C1C(=O)c1c(O)cccc1C2=O	7G8	-	SYBR Green	-	inhibition	2 µM	90%
N#Cc1nc2c(-c3nc4ccccc4[nH]3)c(N)n(Cc3ccc(O)c(O)c3)c2nc1C#N	NF54	Erythrocytes	hypoxanthine uptake / radiometric	-	EC50	-	5.23 µM
C[C@H]1[C@@H](OC(=O)CCC(=O)O)O[C@@H]2O[C@@]3(C)CC[C@H]4[C@H](C)CC[C@@H]1[C@@]24OO3	Dd2	Red blood cells	SYBR Green	-	EC50	-	0.0015 µg/mL
NCCCC[C@H](N)C(=O)N(O)C1C[C@@H](C(N)=O)N(C(=O)c2ccccc2-c2ncc(-c3ccccc3)o2)C1	3D7	Red blood cells	flow cytometry	96 h	EC50	-	427.1 µM
CCCCCC	D10	Human dermal fibroblasts	MTT	-	EC50	-	43.4 µg/mL
N#Cc1nc2c(-c3nc4ccccc4[nH]3)c(N)n(CCc3ccc(S(N)(=O)=O)cc3)c2nc1C#N	NF54	Erythrocytes	hypoxanthine uptake / radiometric	-	EC50	-	>100 µM
CC[C@H]1OC(=O)[C@H](C)[C@@H](OC2C[C@@](C)(OC)[C@@H](O)[C@H](C)O2)[C@H](C)[C@@H](OC2O[C@H](C)C[C@H](N(C)C)[C@H]2O)[C@](C)(OC2C[C@@H](N(C)C)[C@@H](O)[C@H](C)O2)C[C@@H](C)C(=O)[C@H](C)[C@@H](O)[C@]1(C)O	3D7AziR	RBC	fluorescence	120 h	EC50	-	1.8 µM
CCO/C(=N/NC(=O)NC)C(C)(O)c1ccc(Cl)c(Cl)c1	3D7	-	hypoxanthine uptake / radiometric	-	inhibition	5 µM	75%
CN(C)CCCn1c(N)c(-c2nc3ccccc3[nH]2)c2nc(C#N)c(C#N)nc21	NF54	Erythrocytes	hypoxanthine uptake / radiometric	-	EC50	-	0.1 µM
CCN(CC)CCCC(C)Nc1ccnc2cc(Cl)ccc12	HB3	Red blood cells	SYBR Green	-	EC50	-	0.009 µg/mL
CCCO/C(=N/NC(=O)OC(C)(C)C)C(C)(O)c1ccc(Cl)c(Cl)c1	3D7	-	hypoxanthine uptake / radiometric	-	inhibition	5 µM	43%
N#Cc1nc2c(-c3nc4ccccc4[nH]3)c(N)n(CCc3ccccc3F)c2nc1C#N	NF54	Erythrocytes	hypoxanthine uptake / radiometric	-	EC50	-	0.41 µM
CC[C@H]1OC(=O)[C@H](C)[C@@H](OC2C[C@@](C)(OC)[C@@H](O)[C@H](C)O2)[C@H](C)[C@@H](OC2O[C@H](C)C[C@H](N(C)C)[C@H]2O)[C@](C)(O)C[C@@H](C)CN(C)[C@H](C)[C@@H](O)[C@]1(C)O	3D7AziR	RBC	fluorescence	120 h	EC50	-	1.2 µM
Nc1nc(Nc2ccccc2)nc(Nc2nc(-c3ccc(Cl)cc3)cs2)n1	3D7	-	-	-	inhibition	50 µg/mL	3%
N#Cc1nc2c(-c3nc4ccccc4[nH]3)c(N)n(Cc3ccc4c(c3)OCO4)c2nc1C#N	NF54	Erythrocytes	hypoxanthine uptake / radiometric	-	EC50	-	0.32 µM

The last 3 rows once more:

SMILES,strain,cells,read by,conditions,endpoint,tested at,result
CC[C@H]1OC(=O)[C@H](C)[C@@H](OC2C[C@@](C)(OC)[C@@H](O)[C@H](C)O2)[C@H](C)[C@@H](OC2O[C@H](C)C[C@H](N(C)C)[C@H]2O)[C@](C)(O)C[C@@H](C)CN(C)[C@H](C)[C@@H](O)[C@]1(C)O,3D7AziR,RBC,fluorescence,120 h,EC50,-,1.2 µM
Nc1nc(Nc2ccccc2)nc(Nc2nc(-c3ccc(Cl)cc3)cs2)n1,3D7,-,-,-,inhibition,50 µg/mL,3%
N#Cc1nc2c(-c3nc4ccccc4[nH]3)c(N)n(Cc3ccc4c(c3)OCO4)c2nc1C#N,NF54,Erythrocytes,hypoxanthine uptake / radiometric,-,EC50,-,0.32 µM